Measured values from several laboratories, pooled; numbers as filed in NIAID ChemDB.

Common to all: host cell toxicity; cells: CEM; read-out: CC50

Blank or dashed fields: not listed here. Neighbouring rows are from separate reports. CCn: concentration that lowers growth or viability of the cells by n%.

smiles	method	value
CC(c1ccc(F)cc1)S(=O)c1cccc[n+]1[O-]	cell count	0.33 µg/mL
Cc1occc1C(=S)Nc1ccc(Cl)c(C(=O)OC2CCCC2)c1	-	4.3 µg/mL
CC(C)c1ccc(C2(CN)CCC(=O)N2c2ccccc2)cc1	absorbance	32.9 µM
O=[N+]([O-])c1cc(CS(=O)(=O)c2cccc[n+]2[O-])ccc1Cl	cell count	4.3 µg/mL
CC(C)CN(C[C@@H](O)[C@H](Cc1ccccc1)NC(=O)CCCN1C(=O)c2ccccc2C1=O)S(=O)(=O)c1ccc(Br)cc1	MTT	>100 µM
O=C1N[C@H]2C(=O)N[C@H]3C(=O)N[C@H](C(=O)N[C@H](C(=O)O)c4cc(O)cc(O)c4-c4cc3ccc4O)[C@H](O)c3ccc(c(Cl)c3)Oc3cc2cc(c3O)Oc2ccc(cc2Cl)C[C@H]2NC(=O)[C@H](NC(=O)C34CC5CC(CC(C5)C3)C4)c3ccc(O)c(c3)Oc3cc(O)cc(c3)[C@@H]1NC2=O	cell count	83 µM
Cc1ccc2nc(Cl)c(/C=C/C(=O)c3c4ccccc4cc4ccccc34)cc2c1	MTS	2.9 µM
CCOc1cccnc1SCc1ccccc1	cell count	90 µg/mL
COc1ccc2nc(Cl)c(/C=C/C(=O)c3ccc[nH]3)cc2c1	MTS	4.7 µM
Cc1occc1C(=S)Nc1ccc(Cl)c(C(=O)OC(C)C)c1	-	5.2 µg/mL
[N-]=[N+]=N[C@H]1C[C@H](n2cnc3c(NC4CC4)nc(Cl)nc32)O[C@@H]1CO	MTS	>100 µM
Oc1cccnc1SCc1ccccc1	cell count	35 µg/mL
COC(=O)[C@H](CC(C)C)NC(=O)c1ccccc1SSc1ccccc1C(=O)N[C@@H](CC(C)C)C(=O)OC	-	>100 µM
COc1ccc2nc(Cl)c(/C=C/C(=O)c3ccc(C)s3)cc2c1	MTS	14.7 µM
Cc1ccc(C)c(C(c2ccccc2)S(=O)(=O)c2cccc[n+]2[O-])c1	cell count	43 µg/mL
C/C(=N\NC(=O)CN1c2c(-c3ccccc3)n[nH]c2-c2ccccc2S1(=O)=O)c1cc(C)sc1C	MTS	17.6 µM
CC(C)(C)[Si](C)(C)O[C@H]1[C@H](n2ccc(=O)[nH]c2=O)O[C@H](CO)C1(O)C(N=[N+]=[N-])C(N)=O	propidium iodide / flow cytometry	>50 µM
C/C=C/CSc1cc(NC(=S)c2ccoc2C)ccc1Cl	-	4.7 µg/mL
CN[C@H]1C(=O)N[C@@H]2Cc3ccc(cc3)Oc3cc4cc(c3O[C@@H]3O[C@H](C(=O)O)[C@@H](O)[C@H](O)[C@H]3N)Oc3ccc(cc3Cl)[C@@H](O)[C@@H]3NC(=O)[C@H](NC(=O)[C@@H]4NC(=O)[C@@H](NC2=O)c2cc(cc(O)c2Cl)Oc2cc1ccc2O)c1ccc(O)c(c1)-c1c(O[C@H]2O[C@H](CO)[C@@H](O)[C@H](O)[C@@H]2O)cc(O)cc1[C@@H](C(=O)O)NC3=O	cell count	>500 µM
CC(C)OC(=O)c1cc(NC(=S)c2ccccc2N)ccc1Cl	-	6.7 µg/mL
Cc1ccc(N)cc1C(C)S(=O)(=O)c1cccc[n+]1[O-]	cell count	≥100 µg/mL
C/C(=N\NC(=O)CN1c2c(-c3ccccc3)n[nH]c2-c2ccccc2S1(=O)=O)c1ccc(Cl)s1	MTS	8.4 µM
COc1ccc2nc(Cl)c(/C=C/C(=O)c3cccc4ccccc34)cc2c1	MTS	31.6 µM
O=C(O)CC[C@H](NC(=O)c1ccccc1SSc1ccccc1C(=O)N[C@@H](CCC(=O)O)C(=O)O)C(=O)O	-	>100 µM
Cc1ccc(N2C(=O)CCC2(C#N)c2ccc(OCc3ccc(Cl)cc3Cl)cc2)cc1	absorbance	6.6 µM
C=CC(C)(C)OC(=O)c1cc(NC(=S)c2ccoc2C)ccc1Cl	-	25 µg/mL
[N-]=[N+]=N[C@H]1C[C@H](n2cnc3c(N)nc(Cl)nc32)O[C@@H]1CO	MTS	>100 µM
O=C(N[C@@H](CCC1CCCCC1)C(=O)O)c1ccccc1SSc1ccccc1C(=O)N[C@@H](CCC1CCCCC1)C(=O)O	-	75 µM
Cc1ccc(N2C(=O)CCC2(C#N)c2ccccc2OCc2ccccc2)cc1	absorbance	16.1 µM
COC(=O)/C=C1/[C@@H](O[Si](C)(C)C(C)(C)C)[C@H](n2ccc(=O)[nH]c2=O)O[C@@H]1CO[Si](C)(C)C(C)(C)C	propidium iodide / flow cytometry	25 µM
Cc1ccoc1C(=S)Nc1ccc(Cl)c(C(=O)OC(C)C)c1	-	15 µg/mL
CN[C@H](CC(C)C)C(=O)N[C@H]1C(=O)N[C@@H](CC(N)=O)C(=O)N[C@H]2C(=O)N[C@H]3C(=O)N[C@H](C(=O)N[C@H](C(=O)O)c4cc(O)c(CNCc5ccc(-c6ccc(Cl)cc6)cc5)c(O)c4-c4cc3ccc4O)[C@H](O[C@H]3C[C@](C)(N)[C@@H](O)[C@H](C)O3)c3ccc(cc3)Oc3cc2cc(c3OC2O[C@H](CO)[C@@H](O)[C@H](O)[C@H]2O[C@H]2C[C@](C)(N)[C@@H](O)[C@H](C)O2)Oc2ccc(cc2Cl)[C@H]1O	cell count	106 µM
CO/N=C/c1cc(NC(=S)c2ccoc2C)ccc1Cl	-	24 µg/mL
O=S(Cc1ccc(F)cc1)c1cccc[n+]1[O-]	cell count	87 µg/mL
CC(=O)ONc1ccc(S(=O)(=O)N(CC(C)C)C[C@@H](O)[C@H](Cc2ccccc2)NC(=O)[C@H](C(C)C)N2C(=O)c3ccccc3C2=O)cc1	MTT	>100 µM
COC(=O)/C=C1/[C@@H](O[Si](C)(C)C(C)(C)C)[C@H](n2cc(C)c(=O)[nH]c2=O)O[C@@H]1CO[Si](C)(C)C(C)(C)C	propidium iodide / flow cytometry	22 µM
CCC[C@H](NC(=O)c1ccccc1SSc1ccccc1C(=O)N[C@@H](CCC)C(=O)O)C(=O)O	-	>80 µM
C/C=C/CSc1cc(NC(=O)c2ccsc2C)ccc1Cl	-	4.8 µg/mL
[N-]=[N+]=N[C@H]1C[C@H](n2cnc3c(Cl)nc(F)nc32)O[C@@H]1CO	MTS	13.3 µM
CC(C)OC(=O)c1cc(NC(=S)c2cccs2)ccc1Cl	-	4.9 µg/mL
Cc1ccc(C)c(C(C#N)Sc2cccc[n+]2[O-])c1	cell count	34 µg/mL
CC(=O)ONc1ccc(S(=O)(=O)N(Cc2ccccc2)C[C@@H](O)[C@H](Cc2ccccc2)NC(=O)Cc2c[nH]c3ccccc23)cc1	MTT	>100 µM
CC(C)Oc1ccc(C2(C#N)CCC(=O)N2c2ccccc2)cc1	absorbance	>100 µM
Cc1sccc1C(=S)Nc1ccc(Cl)c(C(=O)OC(C(C)C)C(C)C)c1	-	6 µg/mL
N#C/C(=C/c1ccccc1)Sc1cccc[n+]1[O-]	cell count	8.7 µg/mL
C/C(=N\NC(=O)CN1c2c(-c3ccccc3)n[nH]c2-c2ccccc2S1(=O)=O)c1sccc1Cl	MTS	16.8 µM
O=S(Cc1ccccc1)c1c(Cl)ccc[n+]1[O-]	cell count	3.7 µg/mL
COc1ccc2nc(Cl)c(/C=C/C(=O)c3cc(C)sc3C)cc2c1	MTS	1.6 µM
Cc1ccc[n+]([O-])c1S(=O)(=O)Cc1c(Cl)cccc1Cl	cell count	70 µg/mL
C=C(Cl)COc1cc(NC(=S)c2ccsc2C)ccc1C#N	-	3.3 µg/mL
Cc1cc(C)cc(N2C(=O)CCC2(CN)c2c(Cl)cccc2Cl)c1	absorbance	≥100 µM
CC(C)c1cc(CS(=O)(=O)c2cccc[n+]2[O-])c(C(C)C)cc1Br	cell count	4.4 µg/mL
CC(C)CN(C[C@@H](O)[C@H](Cc1ccccc1)NC(=O)[C@H](C(C)C)N1C(=O)c2ccccc2C1=O)S(=O)(=O)c1ccc(Br)cc1	MTT	>100 µM
Cc1ccsc1C(=S)Nc1ccc(Cl)c(C(=O)OC(C)C)c1	-	5.2 µg/mL
O=C(O)C[C@H](CCCCNC(=O)OCc1ccccc1)NC(=O)c1ccccc1SSc1ccccc1C(=O)N[C@@H](CCCCNC(=O)OCc1ccccc1)CC(=O)O	-	97 µM
Cc1cn([C@@H]2O[C@H](CO[Si](C)(C)C(C)(C)C)C3(O[C@H]3C(=O)NO)[C@H]2O[Si](C)(C)C(C)(C)C)c(=O)[nH]c1=O	propidium iodide / flow cytometry	3.1 µM
C/C(=N\NC(=O)CN1c2c(-c3ccccc3)n[nH]c2-c2ccccc2S1(=O)=O)c1cc(C)cs1	MTS	18.3 µM
CCc1ccc(CS(=O)(=O)c2cccc[n+]2[O-])cc1	cell count	16 µg/mL
CC(C)=CCOc1cc(NC(=O)c2ccsc2C)ccc1Cl	-	6 µg/mL
C/C(=N\NC(=O)CN1c2c(-c3ccccc3)n[nH]c2-c2ccccc2S1(=O)=O)c1ccc[nH]1	MTS	20 µM
CC(C)(C)OC(=O)N[C@H]1C(=O)N[C@@H]2Cc3ccc(c(Cl)c3)Oc3cc4cc(c3O)Oc3ccc(cc3Cl)[C@@H](O)[C@@H]3NC(=O)[C@H](NC(=O)[C@@H]4NC(=O)[C@@H](NC2=O)c2cc(O)cc(c2)Oc2cc1ccc2O)c1ccc(O)c(c1)-c1c(O)cc(O)cc1[C@@H](C(=O)O)NC3=O	cell count	>250 µM
Cc1ccc(CS(=O)(=O)c2cccc[n+]2[O-])c(C)c1	cell count	16 µg/mL
Cc1sccc1C(=S)Nc1ccc(Cl)c(OCC(=O)OC(C)(C)C)c1	-	2.1 µg/mL
Cc1ccc(N2C(=O)CCC2(CN)c2ccccc2)cc1	absorbance	53.6 µM
O=[N+]([O-])c1ccccc1CS(=O)(=O)c1cccc[n+]1[O-]	cell count	13 µg/mL
CC(C)O/N=C/c1cc(NC(=S)c2ccccc2)ccc1Cl	-	9 µg/mL
Cc1ccc(N2C(=O)CCC2(C#N)c2ccc(OC(C)C)cc2)cc1	absorbance	17 µM
COC(=O)[C@H]1NC(=O)[C@H]2NC(=O)[C@H](NC(=O)[C@@H]3NC(=O)[C@H]4NC(=O)[C@H](NC(=O)[C@H](N)c5ccc(O)c(c5)Oc5cc4cc(O)c5C)[C@H](O)c4ccc(cc4)Oc4cc3cc(c4O)Oc3ccc(cc3)[C@H]2O)c2ccc(O)c(c2)-c2c(O)cc(O)cc21	cell count	>100 µM
Cc1occc1C(=S)Nc1ccc(Cl)c(OCC(=O)OC(C)(C)C)c1	-	4.3 µg/mL
O=C(N[C@H]1C(=O)N[C@@H]2Cc3ccc(c(Cl)c3)Oc3cc4cc(c3O)Oc3ccc(cc3Cl)[C@@H](O)[C@@H]3NC(=O)[C@H](NC(=O)[C@@H]4NC(=O)[C@@H](NC2=O)c2cc(O)cc(c2)Oc2cc1ccc2O)c1ccc(O)c(c1)-c1c(O)cc(O)cc1[C@@H](C(=O)O)NC3=O)OCc1ccccc1	cell count	>250 µM
C=CCOc1cc(NC(=S)c2sccc2C)ccc1Cl	-	5.3 µg/mL